Tested on: HIV-1 (IIIB strain)
Assay: Anti-HIV-1 assay: inhibition of virus-induced cytopathicity in acutely infected MT-4 cells (MTT)
Type: cell-based
Conditions: for SI: selectivity index, CC50/EC50 ratio: CC50 (mock-infected cells) / EC50 (HIV-1 in MT-4 cells)
Protocol: Compounds. Compounds were solubilized in DMSO at 200 mM and then diluted into culture medium.
Cells and viruses. MT-4, C8166, H9/IIIB and CEM cells were grown at 37° C. in a 5% CO2 atmosphere in RPMI 1640 medium, supplemented with 10% fetal calf serum (FCS), 100 UI/mL penicillin and 100 μg/mL streptomycin. Cell cultures were checked periodically for the absence of mycoplasma contamination with a MycoTect Kit (Gibco). Human immunodeficiency virus type-1 (HIV-1, IIIB strain) was obtained from supernatants of persistently infected H9/IIIB cells.
Anti-HIV assays. Activity of the compounds against HIV-1 and HIV-2 multiplication in acutely infected cells was based on the inhibition of virus-induced cytopathicity in MT-4 and C8166 cells, respectively. Briefly, 50 μL of culture medium containing 1×10^4 cells were added to each well of flat-bottom microtiter trays containing 50 μl of culture medium with or without various concentrations of the test compounds. Then 20 μL of an HIV suspension containing 100 CCID50 were added. After a 4-day incubation at 37° C., the number of viable cells was determined by the 3-(4,5-dimethylthiazol-[…])-2,5-diphenyltetrazolium bromide (MTT) method. Cytotoxicity of the compounds was evaluated in parallel with their antiviral activity. It was based on the viability of mock-infected cells, as monitored by the MTT method.

Structure (SMILES) | SI: selectivity index, CC50/EC50 ratio | SI (selectivity index, CC50/EC50 ratio)
Cc1c(C(C)c2c(F)cccc2F)nc(SC2CCCC2)[nH]c1=O (single isomer, unassigned) [MC 1047−] | >286 | –
CCCCNc1nc(Cc2c(F)cccc2F)c(C)c(=O)[nH]1 [MC 1185] | – | >10,000
CNc1nc(C(C)c2c(F)cccc2F)c(C)c(=O)[nH]1 (racemic) [MC 1170] | >6,666 | –
O=c1cc(Cc2c(Cl)cccc2Cl)nc(SC2CCCC2)[nH]1 [MC 888] | – | >500
Cc1c(C(C)c2c(F)cccc2F)nc(SC(C)C)[nH]c1=O (racemic) [MC 1137] | 28,571 | –
CCc1c(Cc2c(F)cccc2F)nc(SC(C)CC)[nH]c1=O (centres unmarked) [MC 1038] | – | >2,000
CC(c1cc(=O)[nH]c(SC2CCCCC2)n1)c1c(F)cccc1F (centres unmarked) [MC 1013] | – | >1,250
CCC(C)Sc1nc(Cc2c(F)cccc2F)c(C)c(=O)[nH]1 (centres unmarked) [MC 849] | – | 8,000
Cc1c(C(C)c2c(F)cccc2F)nc(SCC(C)C)[nH]c1=O (racemic) [MC 1153] | >20,000 | –
CC(c1cc(=O)[nH]c(NC2CCCC2)n1)c1c(F)cccc1F (centres unmarked) [MC 1048] | – | 2,500
Cc1c(Cc2c(Cl)cccc2Cl)nc(SCC(C)C)[nH]c1=O [MC 916] | – | >166
CCC(c1cc(=O)[nH]c(SC(C)C)n1)c1cccc2ccccc12 (centres unmarked) [MC 969] | – | 33.3
CCC(C)Sc1nc(Cc2c(F)cccc2F)cc(=O)[nH]1 (centres unmarked) [MC 848] | – | 5,000
O=c1cc(Cc2c(F)cccc2F)nc(NC2CCCC2)[nH]1 [MC 1022] | – | >2,222
O=c1cc(Cc2c(Cl)cccc2Cl)nc(SC2CCCCC2)[nH]1 [MC 891] | – | >333
O=c1cc(Cc2c(F)cccc2F)nc(N2CCCC2)[nH]1 [MC 1196] | >95 | –
CCC(C)Sc1nc(Cc2ccccc2F)c(C)c(=O)[nH]1 (centres unmarked) [MC 913] | – | 341
Cc1c(Cc2c(Cl)cccc2Cl)nc(SC2CCCCC2)[nH]c1=O [MC 917] | – | >9
CCC(c1cc(=O)[nH]c(SC(C)C)n1)c1c(F)cccc1F (centres unmarked) [MC 1005] | – | 875
CC1CCC(C)C(Oc2nc(Cc3ccccc3)cc(=O)[nH]2)C1 (mixture of isomers) [MC 507] | – | 40
CCCNc1nc(Cc2c(F)cccc2F)cc(=O)[nH]1 [MC 1078] | – | 1,818
CSc1nc(Cc2c(F)cccc2F)cc(=O)[nH]1 [MC 871] | – | 247
Cc1c(Cc2c(F)cccc2F)nc(N2CCOCC2)[nH]c1=O [MC 1205] | >4,255 | –
CSCSc1nc(Cc2ccccc2)cc(=O)[nH]1 [MC 1140] | >10 | –
CCC(C)Nc1nc(C(C)c2c(F)cccc2F)cc(=O)[nH]1 (mixture of isomers) [MC 1192] | 2,150 | –
O=c1cc(Cc2c(F)cccc2F)nc(OC2CCCC2)[nH]1 [MC 1103] | – | >10

Structure (SMILES) | SI: selectivity index, CC50/EC50 ratio | SI (selectivity index, CC50/EC50 ratio)
Cc1c(Cc2c(Cl)cccc2Cl)nc(SC(C)C)[nH]c1=O [MC 914] | – | >154
CCCCNc1nc(Cc2c(F)cccc2F)cc(=O)[nH]1 [MC 1077] | – | 1,000
CCC(c1cc(=O)[nH]c(SC2CCCC2)n1)c1cccc2ccccc12 (centres unmarked) [MC 973] | – | 17
Cc1c(C(C)c2c(F)cccc2F)nc(NC2CCCC2)[nH]c1=O (centres unmarked) [MC 1129] | – | 4,500
CCC(C)Sc1nc(C(C)c2c(F)cccc2F)cc(=O)[nH]1 (centres unmarked) [MC 1110] | – | >6,666
CCC(C)Sc1nc(Cc2ccccc2C(F)(F)F)cc(=O)[nH]1 (racemic) [MC 868] | – | 6.2
Cc1c(Cc2c(F)cccc2F)nc(NC2CCCC2)[nH]c1=O [MC 1050] | – | >10,000
CCC(c1cc(=O)[nH]c(SC2CCCCC2)n1)c1c(Cl)cccc1Cl (centres unmarked) [MC 1003] | – | >55.5
CNc1nc(Cc2c(F)cccc2F)c(C)c(=O)[nH]1 [MC 1168] | – | 335
CCC(C)Sc1nc(Cc2ccc(OC)cc2)cc(=O)[nH]1 (centres unmarked) [MC 964] | – | 10.5
CCC(c1cc(=O)[nH]c(SC(C)C)n1)c1c(Cl)cccc1Cl (centres unmarked) [MC 1000] | – | >500
CCC(C)Nc1nc(Cc2c(F)cccc2F)c(C)c(=O)[nH]1 (centres unmarked) [MC 1130] | – | 2,857
CC(C)Sc1nc(C(C)c2cccc3ccccc23)cc(=O)[nH]1 (centres unmarked) [MC 971] | – | 108
CCC(c1ccccc1)c1cc(=O)[nH]c(SC2CCCCC2)n1 (racemic) [MC 903] | – | >154
CC(c1cc(=O)[nH]c(NC2CCCCC2)n1)c1c(F)cccc1F (racemic) [MC 1180] | 2,545 | –
O=c1cc(Cc2c(F)cccc2F)nc(SC2CCCCC2)[nH]1 [MC 870] | – | 2,500
CC(C)Sc1nc(Cc2c(F)cccc2F)cc(=O)[nH]1 [MC 860] | – | >1,000
O=c1cc(Cc2c(F)cccc2F)nc(N2CCOCC2)[nH]1 [MC 1188] | >333 | –
CCC(C)Sc1nc(C(C)c2c(F)cccc2F)c(C)c(=O)[nH]1 (centres unmarked) [MC 1109] | – | >6,666
CCC(C)Sc1nc(Cc2ccccc2Cl)c(C)c(=O)[nH]1 (centres unmarked) [MC 909] | – | >741
CCCCNc1nc(C(C)c2c(F)cccc2F)cc(=O)[nH]1 (racemic) [MC 1189] | 1,730 | –
Cc1c(C(C)c2c(F)cccc2F)nc(SC2CCCC2)[nH]c1=O (single isomer, unassigned) [MC 1047+] | >100,000 | –
CCC(c1cc(=O)[nH]c(SC2CCCC2)n1)c1c(F)cccc1F (centres unmarked) [MC 1006] | – | 1,333
CCCCSc1nc(C(C)c2c(F)cccc2F)cc(=O)[nH]1 (centres unmarked) [MC 1045] | – | 2,857
CC(C)Sc1nc(Cc2c(Cl)cccc2Cl)cc(=O)[nH]1 [MC 878] | – | >105
CCCCSc1nc(Cc2c(F)cccc2F)c(C)c(=O)[nH]1 [MC 905] | – | >2,500

Structure (SMILES) | SI: selectivity index, CC50/EC50 ratio | SI (selectivity index, CC50/EC50 ratio)
CSCSc1nc(Cc2c(F)cccc2F)c(C(C)C)c(=O)[nH]1 [MC 1145] | 2,000 | –
CCC(c1ccccc1)c1cc(=O)[nH]c(SC(C)C)n1 (racemic) [MC 899] | – | 250
CCC(c1ccccc1)c1cc(=O)[nH]c(SC2CCCC2)n1 (racemic) [MC 900] | – | >200
CC(c1cc(=O)[nH]c(SC2CCCC2)n1)c1cccc2ccccc12 (centres unmarked) [MC 972] | – | 186
CCc1c(Cc2c(F)cccc2F)nc(SC(C)C)[nH]c1=O [MC 1037] | – | 326
Cc1c([C@@H](C)c2c(F)cccc2F)nc(SC2CCCC2)[nH]c1=O [MC 1047] | – | >22,222
CCCCSc1nc(Cc2c(Cl)cccc2Cl)c(C)c(=O)[nH]1 [MC 920] | – | >171
CCC(C)Sc1nc(Cc2ccc(C(F)(F)F)cc2)cc(=O)[nH]1 (racemic) [MC 959] | – | 8
CCC(c1cc(=O)[nH]c(SC2CCCCC2)n1)c1cccc2ccccc12 (centres unmarked) [MC 975] | – | 94
Cc1c(Cc2c(F)cccc2F)nc(SC2CCCC2)[nH]c1=O [MC 922] | – | >2,500
CCC(C)Sc1nc(Cc2ccccc2OC)cc(=O)[nH]1 (centres unmarked) [MC 952] | – | >208
CCC(C)Sc1nc(Cc2ccc(C)cc2)cc(=O)[nH]1 (racemic) [MC 809] | – | 333.3
CCC(c1cc(=O)[nH]c(SC2CCCCC2)n1)c1c(F)cccc1F (centres unmarked) [MC 1014] | – | 2,600
CC(C)Sc1nc(C(C)c2c(F)cccc2F)cc(=O)[nH]1 (centres unmarked) [MC 1007] | – | 3,340
CCC(c1cc(=O)[nH]c(SC2CCCC2)n1)c1c(Cl)cccc1Cl (centres unmarked) [MC 1002] | – | 23.4
CCc1c(Cc2ccccc2)nc(SC(C)CC)[nH]c1=O (centres unmarked) [MC 798] | – | >200
CSCSc1nc(Cc2c(F)cccc2F)c(C)c(=O)[nH]1 [MC 1162] | 250 | –
CCC(C)Sc1nc(Cc2cccc(Cl)c2)c(C)c(=O)[nH]1 (centres unmarked) [MC 910] | – | >208
CCN(CC)c1nc(Cc2c(F)cccc2F)cc(=O)[nH]1 [MC 1202] | >769 | –
CCCN(CCC)c1nc(Cc2c(F)cccc2F)cc(=O)[nH]1 [MC 1204] | >53 | –
Cc1c(Cc2c(F)cccc2F)nc(SCC(C)C)[nH]c1=O [MC 921] | – | 640
CCC(C)Sc1nc(Cc2cccc([N+](=O)[O-])c2)cc(=O)[nH]1 (racemic) [MC 897] | – | 392
CC1CCC(Oc2nc(Cc3ccccc3)cc(=O)[nH]2)CC1C (mixture of isomers) [MC 508] | – | 9
O=c1cc(Cc2c(F)cccc2F)nc(NC2CC2)[nH]1 [MC 980] | – | >63
O=c1cc(Cc2c(F)cccc2F)nc(NC2CCCCC2)[nH]1 [MC 1049] | – | 471
